Results of unrelated studies side by side (data: NIAID ChemDB).

All rows: whole-cell or culture tests; agent: Hepatitis C virus

ECn: concentration that inhibits the pathogen or its effect by n%.

| smiles | tested at | read-out | read by | mutations | strain | cell line | result |
|---|---|---|---|---|---|---|---|
| C[C@@]1(O)[C@H](O)[C@@H](CO)O[C@H]1c1c[nH]c2c(N)ncnc12 | 50 µg/mL | inhibition | MTT |  |  | HeLa-5B | 1.07% |
| CC(C)OC(=O)[C@H](C)N[P@](=O)(OC[C@H]1O[C@@](C#N)(c2ccc3c(N)ncnn23)[C@](C)(O)[C@@H]1OC(=O)C(C)C)Oc1ccccc1 |  | fold resistance | luciferase | A156T | 1b Con1 | 1C | 0.36 |
| O=C(O)c1c(-c2ccc(O)cc2)nc(SCc2nc3ccccc3[nH]2)[nH]c1=O |  | EC50 | replicon / PCR |  |  | Huh7 | 0.116 µM |
| C[C@@]1(O)[C@H](O)[C@@H](CO)O[C@H]1n1ccc2c(N)ncnc21 | 2 µg/mL | inhibition | MTT |  |  | Hep3B-T5B | 0.13% |
| CC(C)(CO)C(=O)SCCOP(=O)(NCc1ccccc1)OC[C@H]1O[C@@H](n2cnc3c(=O)[nH]c(N)nc32)[C@](C)(O)[C@@H]1O |  | fold resistance | replicon | R318W | GT1b | Replicon cells | 0.75 |
| O=C(O)c1c(-c2ccc(F)cc2)nc(NCc2nc3ccccc3[nH]2)[nH]c1=O |  | EC90 | replicon / PCR |  |  | Huh7 | 1.23 µM |
| CC(=O)Nc1ccc(-c2ccc(Cl)cc2)c(COc2ccc(-c3nc4cc(C(=O)O)ccc4n3C3CCCCC3)cc2)c1 |  | EC50 | luciferase |  |  | JFH1 | 7.408 µM |
| CC[C@H](C)C(=O)O[C@H]1C[C@H](O)C=C2C=C[C@H](C)C(CC[C@@H](O)C[C@H](O)CC(=O)O)[C@H]21 |  | EC50 | luciferase / replicon |  |  | Huh 9-13 | >20 µM |
| C[C@@]1(O)[C@H](O)[C@@H](CO)O[C@H]1n1cnc2c(N)ncnc21 |  | EC50 | luciferase / reporter gene | Y93H | genotype 1b | Huh7.5 | 0.0292 µM |
| N#Cc1c(-c2ccccc2Cl)nc(SCc2nc3ccccc3[nH]2)[nH]c1=O |  | EC90 | replicon / PCR |  |  | Huh7 | 0.564 µM |
| COc1ccc2c(O[C@@H]3C[C@H]4C(=O)N[C@]5(C(=O)NS(=O)(=O)C6CC6)C[C@H]5/C=C\CCCCN(C)C(=O)[C@@H]4C3)cc(-c3nc(C(C)C)cs3)nc2c1C | 0.024 µM | inhibition | luciferase / replicon |  | 1b | Huh7 | 97.79% |
| N#Cc1c(-c2ccccc2O)nc(SCc2nc3ccccc3[nH]2)[nH]c1=O |  | EC90 | replicon / PCR |  |  | Huh7 | 0.345 µM |
| CNC(=O)c1c(-c2ccc(F)cc2)oc2cc(N(CCO)S(C)(=O)=O)c(C3CC3)cc12 |  | EC50 | luciferase |  | 5a | Huh7 | 0.0011 µM |
| CC(C)(C)OC(=O)N[C@@H]1CCCCC/C=C\[C@@H]2C[C@@]2(C(=O)NS(=O)(=O)C2CC2)NC(=O)[C@@H]2C[C@@H](OC(=O)N3Cc4cccc(F)c4C3)CN2C1=O |  | EC50 | antigen |  | SA13 | Huh7.5 | 0.03 µM |
| O=c1cc(-c2ccc(O)cc2)oc2cc(O)cc(O)c12 | 1 µM | inhibition | PCR |  | G1 | Huh7 | 30% |
| Fc1ccccc1-c1nc2ccn(Cc3ccc(-c4ccc(C(F)(F)F)cc4C(F)(F)F)nn3)cc-2n1 |  | EC50 | luciferase |  | 3a | Huh7 | 1.382 µM |
| Clc1ccc(Cn2c(CN3CCCC3)nc3ccccc32)cc1 | 15 µM | inhibition | luciferase / replicon |  | 1b Con1 | Huh7 | 71.8% |
| C=C[C@@H]1C[C@]1(NC(=O)[C@@H]1C[C@@H](Oc2nccc3ccc(Br)cc23)CN1C(C)=O)C(=O)NS(=O)(=O)C1CC1 |  | EC50 | luciferase |  | 1b D168V |  | >3 µM |
| N#Cc1c(-c2ccc(F)cc2)nc(SCc2nc3ccccc3[nH]2)[nH]c1=O |  | EC90 | replicon / PCR |  |  | Huh7 | 0.563 µM |
| O=c1c(O)c(-c2ccc(O)c(O)c2)oc2cc(O)cc(O)c12 | 0.1 µM | inhibition | PCR |  | G1 | Huh7 | 49% |
| O=C(O)c1c(-c2ccccc2Cl)nc(SCc2nc3ccccc3[nH]2)[nH]c1=O |  | EC50 | replicon / PCR |  |  | Huh7 | 0.298 µM |
| COC(=O)N[C@H](C(=O)N1CCC[C@H]1c1ncc(-c2ccc(-c3ccc(-c4cnc([C@@H]5CCCN5C(=O)[C@@H](NC(=O)OC)C(C)C)[nH]4)cc3)cc2)[nH]1)C(C)C |  | EC50 | antigen |  | JFH-1 | Huh7.5 | 0.00008 µM |

Repeating the final 3 entries:

smiles | tested at | read-out | read by | mutations | strain | cell line | result
O=c1c(O)c(-c2ccc(O)c(O)c2)oc2cc(O)cc(O)c12 | 0.1 µM | inhibition | PCR |  | G1 | Huh7 | 49%
O=C(O)c1c(-c2ccccc2Cl)nc(SCc2nc3ccccc3[nH]2)[nH]c1=O |  | EC50 | replicon / PCR |  |  | Huh7 | 0.298 µM
COC(=O)N[C@H](C(=O)N1CCC[C@H]1c1ncc(-c2ccc(-c3ccc(-c4cnc([C@@H]5CCCN5C(=O)[C@@H](NC(=O)OC)C(C)C)[nH]4)cc3)cc2)[nH]1)C(C)C |  | EC50 | antigen |  | JFH-1 | Huh7.5 | 0.00008 µM

An empty or dashed field is not shown. Conditions beyond the fields shown may differ between rows. Fold resistance has wild type as its base. Inhibition is in % at the dose shown (toxicity tests: loss of growth or viability).